Here are results for one molecule from PubChem BioAssay AID504690 (Sanford-Burnham Center for Chemical Genomics, 2011).

Broadly, the inhibition is the change of the read-out against control, counted positive when it falls.

The list shows a part of the results, in another mix than the full data. Active and inactive are the calls of the source.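 How the source made its calls: active means inhibition reaching at least a set limit at 20 µM in the primary screen (cut at about 59% in these data); inactive means the rest.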

For the assay, the system named is glucose-6-phosphate dehydrogenase-6-phosphogluconolactonase (Plasmodium falciparum 3D7). In words: inhibition of malaria parasite G6PD (PfGluPho) – biochemical, fluorescence intensity, uHTS, primary screen (AID 504690).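 Further: 0% = DMSO wells with substrate and 100% = DMSO wells lacking glucose-6-phosphate.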 The settings on record: PfGluPho enzyme, NADPH resazurin-diaphorase fluorescence; at 20 µM; active compounds read high. In general terms: Alamar Blue is a resazurin reagent that responds to reducing activity.
`O=C(COc1ccccc1)OC1CN2CCC1CC2` (stereo unspecified): the inhibition is inactive: -18.4%.
